For at least one entry, the source does not settle the construct or the ends of the probe.
Molecular target: HIV-1 NCp7 (nucleocapsid p7) (HIV-1) (UniProt P12493)
Test: binding assay
Details: plate-immobilized NCp7, streptavidin-HRP detection; 50 mM Tris pH 7.5, 50 mM KCl, 10 mM MgCl2, RT; BSA block; sensitive to azodicarbonamide and DIBA-1; purified recombinant protein; label: biotin; single-stranded DNA

GGACTAGCGGAGGCTAGTCC [biotinylated SL3]
binding result: binds

— patent US20030198648
